Results published in article PMC7356157 (Microorganisms, 2020).

Assay: general procedure: Fmoc solid-phase peptide synthesis; Rink amide resin (100 mg, 0.46 meq/g substitution); DCC / 6-Cl-HOBt
Conditions: whole synthesis, 210 nm, scale of the general procedure 100 mg resin

Row | Sequence | final HPLC purity [%]
1 | KKMKKALQYIKL | 97
2 | RYRRKKKMKKALQYIKLLKE | 96
3 | RYRRKKKMKKALQYIKL | 100
4 | RKKKMKKALQY | 98
5 | KMKKALQYIKLLKE | 71
6 | RYRRKKKMKKA | 97
7 | RYRRKKKMKKALQY | 98
8 | RYRRKKKMKK | 97
9 | ALQYIKLLKE | 99
10 | MKKALQYIKLLKE | 98
11 | KKKMKKALQYIKLLKE | 74
12 | KKMKKALQYIKLLKE | 90
13 | KMKKALQY | 98
14 | KKMKKALQYIKLLK | 99

Same assay, conditions: whole synthesis, 210 nm, scale of the general procedure 100 mg resin, run 1

Row | Sequence | final HPLC purity
15 | RKKKMKKALQYIKLLKE | 86% and 95%

Several values for one entry are separate records, joined by “and”; a condition that tells them apart may be missing. Equal entries are not always repeated. Plain letter strings leave the end groups untold.
